PubChem BioAssay AID504761, Drosophila RNAi Screening Center | 2011
Assay: 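Insect host genes that dengue virus relies on to spread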 (primary screen). Cell system: D.Mel-2 cells from Drosophila. Knock-down reagent: long dsRNA against Drosophila genes. Conditions: infection with dengue virus type 2; dose and infection time not stated. Measured: 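Per well on two replicate plates, imaging gave the percent of cells positive for viral envelope protein, ranked by infection, and a nuclear count of cells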. Reading the numbers: infection score: higher = more virus-infected cells; cell count: higher = more cells in the well. Hit rule: 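Low infection ranks in the two replicates (chance level up to 0.065) followed by a retest with a 1.5-fold or larger significant decrease, p below 0.05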. Meaning of the calls: active = confirmed: knock-down lowers infection; inactive = not picked or not confirmed.
The deposit covers about 22,000 reagents; this is an unselected part of those with a known target gene and a result. In the full data, 116 (0.52%) were called active. 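Calls depend on retest data that are not deposited; infection was ranked per plate without normalising between plates; the unit of the infection score is not given.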 Raw values are not corrected between plates. A plus sign joins genes that one reagent is predicted to hit. No sequences are given here. Not stated in the record: the amount of reagent, the time to read-out.

target	amplicon	infection score, replicate 1	infection score, replicate 2	cell count, replicate 1	cell count, replicate 2	Outcome
CG2061	DRSC19348	8.67	1.86	6203	6167	inactive
ato (atonal)	DRSC16904	2.52	3.03	6121	6737	inactive
fs(1)Yb (female sterile (1) Yb)	DRSC18777	14.1	3.01	3695	6179	inactive
PK2-R1 (Pyrokinin 2 receptor 1)	DRSC16447	6.05	7.9	6788	6937	inactive
PK2-R1 (Pyrokinin 2 receptor 1)	DRSC24363	30.3	13.6	5688	6440	inactive
Rsph1 (Radial spoke head protein 1)	DRSC02864	6.12	3.54	6503	6497	inactive
Rsph1 (Radial spoke head protein 1)	DRSC26510	0.62	1.6	6127	6268	inactive
PGS1 (Phosphatidylglycerophosphate synthase 1)	DRSC16304	0.94	0.75	5964	6390	inactive
Sgs5bis	DRSC16263	2.23	8.55	6183	5110	inactive
Usp39 (Ubiquitin specific protease 39)	DRSC20032	7.08	4.46	5681	6440	inactive
Usp39 (Ubiquitin specific protease 39)	DRSC29836	2.81	15.2	5841	3235	inactive
par-1	DRSC05792	1.92	2.5	4474	4323	inactive
par-1	DRSC06098	2.78	1.2	6360	6324	inactive
par-1	DRSC06616	8.37		2854	375	inactive
par-1	DRSC07660	4.95	2.18	5573	5957	inactive
par-1	DRSC07661	0.91	0.77	6495	6378	inactive
CG17824 (retired record)	DRSC10288	4	3.86	5794	6864	inactive
CG42369	DRSC03244	3.19	4.77	6417	6039	inactive
CG15543	DRSC15081	3.84	7.66	5997	6280	inactive
Gpdh2 (Glycerol-3-phosphate dehydrogenase 2)	DRSC04346	16.1	19.2	4426	4959	inactive
Listericin	DRSC07334	3.71	7.5	6821	6735	inactive
Listericin	DRSC24374	11.3	2.28	6320	6217	inactive
vilya	DRSC18588		4.52	419	6504	inactive
CG17834	DRSC02637	5.54	15.3	6385	5641	inactive
CG17834	DRSC26694	0.77	7.27	6504	5118	inactive
CG34450	DRSC17822	5.99	4.71	6457	6333	inactive
CG34450	DRSC25085	5.24	7.53	5401	5324	inactive
cnk (connector enhancer of ksr)	DRSC07595	16.9	22.1	5498	5977	inactive
E(var)3-9 (Enhancer of variegation 3-9)	DRSC23242	5.32	2.61	6766	7245	inactive
E(var)3-9 (Enhancer of variegation 3-9)	DRSC29480	6.78	22.7	1446	5183	inactive
drn (doctor no)	DRSC15147	18	11.5	5217	7195	inactive
CG32212 + hpRNA:CR33940	DRSC09618	1.2	1.38	6001	6613	inactive
CCHa1 (CCHamide-1)	DRSC24978	3.16	3.61	6264	6503	inactive
CG15458	DRSC20529	2.59	0.33	6091	5993	inactive
ACXA (Adenylyl cyclase X A)	DRSC00844	4.46	3.53	6185	6210	inactive
ACXA (Adenylyl cyclase X A)	DRSC25338	3.46	5.62	5977	6247	inactive
Chd1 (Chromodomain-helicase-DNA-binding protein 1)	DRSC00745	4.66	3.33	6047	6525	inactive

Reprinted from above, 8 entries:
target	amplicon	infection score, replicate 1	infection score, replicate 2	cell count, replicate 1	cell count, replicate 2	Outcome
Usp39 (Ubiquitin specific protease 39)	DRSC29836	2.81	15.2	5841	3235	inactive
par-1	DRSC05792	1.92	2.5	4474	4323	inactive
par-1	DRSC06098	2.78	1.2	6360	6324	inactive
par-1	DRSC06616	8.37		2854	375	inactive
par-1	DRSC07660	4.95	2.18	5573	5957	inactive
par-1	DRSC07661	0.91	0.77	6495	6378	inactive
CG17824 (retired record)	DRSC10288	4	3.86	5794	6864	inactive
CG42369	DRSC03244	3.19	4.77	6417	6039	inactive

Continued.
target	amplicon	infection score, replicate 1	infection score, replicate 2	cell count, replicate 1	cell count, replicate 2	Outcome
REG (Proteasome regulator gamma)	DRSC20273	5.23	6.66	5871	6383	inactive
CG10459	DRSC05991	8.89	12.2	6210	6694	inactive
CG10459	DRSC22092	1.85	1.23	6523	6338	inactive
CG17290	DRSC06662	33.1	5.76	5463	6753	inactive
CG17290	DRSC27119	6.49	4.03	6151	6326	inactive
nsl1 (non-specific lethal 1)	DRSC15625	7.67	7.17	1369	2009	inactive
Myt1	DRSC11228	3.78	7.72	6371	5724	inactive
Myt1	DRSC30071	2.15	1.96	6739	6321	inactive
Hers (Histone gene-specific Epigenetic Repressor in late S phase)	DRSC19429	3.84	2.73	6072	6192	inactive
Hers (Histone gene-specific Epigenetic Repressor in late S phase)	DRSC19676	3.48	1.67	5977	5863	inactive
Hers (Histone gene-specific Epigenetic Repressor in late S phase)	DRSC24330	7.47	5.76	7015	6681	inactive
Tollo	DRSC11305	6.62	1.16	6435	6491	inactive
Snap29 (Synaptosomal-associated protein 29kDa)	DRSC04721	9.28	11.3	2048	2925	inactive
Snap29 (Synaptosomal-associated protein 29kDa)	DRSC24658	1.53	2.6	6028	5930	inactive
Mad1 (Mitotic arrest-deficient 1)	DRSC07561	6.07	5.08	5811	6120	inactive
sit (stuck in traffic)	DRSC15760	18.5	7.49	2887	4555	inactive
sit (stuck in traffic)	DRSC25250	20.5	1.49	5720	6112	inactive
CG7884	DRSC20065	2.22	0.34	5722	6114	inactive
CG7884	DRSC25412	11	1.59	6524	6603	inactive
BomS1 (Bomanin Short 1)	DRSC22678	4.61	1.82	6960	7103	inactive
CG1738	DRSC19772	4.83	3.12	4923	5454	inactive
CG1738	DRSC29312			413	264	inactive
Cht8 (Chitinase 8)	DRSC04546	7.11	5.23	6185	6686	inactive
CG6282	DRSC10616	3.68	2.23	6812	6647	inactive
CG6282	DRSC29524	20.9	4	4919	700	inactive
CG17186	DRSC15180	10.2	15.1	1497	3004	inactive
CG17186	DRSC27612	2.61	5.94	6851	6716	inactive
GlcT (Glucosylceramide synthase)	DRSC04525	2.79	24.4	6485	6095	inactive
GlcT (Glucosylceramide synthase)	DRSC27991	9.45	5.31	6358	6289	inactive
Mtpalpha (Mitochondrial trifunctional protein alpha subunit)	DRSC01994	13.8	6.14	6081	6075	inactive
CG34348	DRSC19425	1.17	0.84	6650	6542	inactive
CG34348	DRSC19644	1.71	0.61	6788	6554	inactive
Sec6 (Secretory 6)	DRSC06932	4.31	8.93	6384	4848	inactive
Arts + Apl	DRSC10349	1.33	3.66	6330	6659	inactive
CG31036	DRSC15055	2.35	3.6	5867	6438	inactive
CG31036	DRSC15057	3.43	3.68	6413	6387	inactive
pns (pinstripe)	DRSC08598	3.36	2.99	5931	5717	inactive
